Data as given in patent US20160355557A1 (INDUSTRY ACADEMIC COOPERATION FOUNDATION YONSEI UNIVERSITY, published 2016).

Columns and labels:
integrin αMβ2 = test: ELISA, integrin coated on plate, anti-human IgG (Fc)-HRP detection
Description: (§1) Integrins (αII_{^b}β₃, αVβ₃, αMβ₂, and αLβ₂) were added to 96-well plate at 100 ng/well, respectively, followed by coating at 4° C. overnight. After the coating, the wells were washed three times with PBS-T (0.5% Tween 20). The wells were blocked with 1% BSA (in PBS-T) solution at room temperature for 2 h. After the blocking, the wells were washed three times with PBS-T. Saxatilin-Fc or Fc-saxatilin was diluted serially 4-fold from 100 nM to prepare eight sample solutions.
(§2) 100 μl of the sample solutions were triply loaded to each well, followed by a reaction at room temperature for 2 h. After the reaction, the wells were washed three times with PBS-T. 100 μl of anti-human IgG (Fc)-conjugated HRP antibodies, diluted to 1:20,000, was added to each well, followed by a reaction at room temperature for 1 h. After the reaction, the wells were washed four times with PBS-T. TMB solution was added, followed by a reaction at room temperature for 30 min, and then the reaction was stopped by adding a stop solution (0.5 M H₂SO₄). The absorbance was measured at 450 nm to verify the binding between saxatilin and integrins, involved in an interaction between neutrophils and endothelial cells.

integrin αLβ2 = biological target: T1, integrin αLβ2; test: as above
T1 construct: Purified integrin coated on a 96-well plate at 100 ng/well
Description: as §1, §2

| Binder | Kd (integrin αMβ2) | Kd (integrin αLβ2) |
| --- | --- | --- |
| Fc-saxatilin (Fc fusion, Expressed in 293E cells and purified on protein A; also called saxatilin derivative; recombinant saxatilin) not shown | 0.0069 µM | 0.0092 µM |
| saxatilin-Fc (Fc fusion, Expressed in 293E cells and purified on protein A; also called saxatilin derivative; recombinant saxatilin) not shown | 0.3 µM | 0.44 µM |
